{"sequences": {"note": "Amino acid sequences for entries named in this document (tags omitted). Residues count along the entry.", "UniProt O44074, 22-282 limits assumed": "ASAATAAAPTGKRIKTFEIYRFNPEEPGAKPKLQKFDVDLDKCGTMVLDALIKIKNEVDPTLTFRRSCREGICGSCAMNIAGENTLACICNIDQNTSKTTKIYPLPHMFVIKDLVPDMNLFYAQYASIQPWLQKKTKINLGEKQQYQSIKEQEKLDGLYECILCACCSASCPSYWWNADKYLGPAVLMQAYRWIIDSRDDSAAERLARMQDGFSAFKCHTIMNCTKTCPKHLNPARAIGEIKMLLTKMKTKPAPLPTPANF", "UniProt P92506, 32-188 limits assumed": "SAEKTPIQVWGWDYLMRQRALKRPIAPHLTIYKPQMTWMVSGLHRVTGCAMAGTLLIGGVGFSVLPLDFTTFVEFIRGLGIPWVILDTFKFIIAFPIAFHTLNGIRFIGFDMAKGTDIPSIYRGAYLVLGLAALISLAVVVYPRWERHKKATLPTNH", "UniProt P92507, 26-156 limits assumed": "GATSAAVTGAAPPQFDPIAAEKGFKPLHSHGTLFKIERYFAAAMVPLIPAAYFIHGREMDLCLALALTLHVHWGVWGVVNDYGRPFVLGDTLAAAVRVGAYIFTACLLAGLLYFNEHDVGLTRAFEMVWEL", "UniProt Q33862, 19-645 partner limits assumed": "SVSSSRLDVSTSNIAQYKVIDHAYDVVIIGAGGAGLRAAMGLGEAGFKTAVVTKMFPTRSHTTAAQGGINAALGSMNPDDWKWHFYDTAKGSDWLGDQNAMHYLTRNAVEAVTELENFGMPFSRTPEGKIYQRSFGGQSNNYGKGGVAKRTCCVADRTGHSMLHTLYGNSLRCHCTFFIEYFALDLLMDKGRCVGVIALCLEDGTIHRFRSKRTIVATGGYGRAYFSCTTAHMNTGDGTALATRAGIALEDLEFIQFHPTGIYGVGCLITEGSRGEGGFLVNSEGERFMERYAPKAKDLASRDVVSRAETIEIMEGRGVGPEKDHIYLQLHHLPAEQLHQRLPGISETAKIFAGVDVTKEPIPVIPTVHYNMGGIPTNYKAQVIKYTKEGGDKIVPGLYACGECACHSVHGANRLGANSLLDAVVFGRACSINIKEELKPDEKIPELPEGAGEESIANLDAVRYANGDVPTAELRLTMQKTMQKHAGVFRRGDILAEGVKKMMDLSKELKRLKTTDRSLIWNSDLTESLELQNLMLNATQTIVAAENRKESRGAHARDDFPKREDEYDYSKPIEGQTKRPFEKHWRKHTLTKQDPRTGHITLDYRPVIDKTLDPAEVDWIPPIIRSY"}, "source": "patent US9550749B2", "about": "“Endoparasite control agent and method for using the same” (The University of Tokyo, priority 2012, dated 2017)", "biological_target": "Ascaris suum succinate-ubiquinone reductase (mitochondrial complex II) (Ascaris suum, UniProt O44074+P92506+P92507)", "experiment": "In vitro measurement of inhibitory activity on Ascaris suum succinate-ubiquinone reductase (mitochondrial complex II)", "assay_type": "biochemical", "conditions": "read-out: Ascaris suum IC50 value (A); mitochondria from adult Ascaris suum muscle, UQ2 60 μM, succinate 10 mM, 25° C.", "procedure": "In Vitro Measurement of Inhibitory Activity on Ascaris suum Succinate-Ubiquinone Reductase (Mitochondrial Complex II)\nTo a solution containing 50 mM potassium phosphate (pH 7.4) and 0.1% (w/v) sucrose monolaurate, an electron acceptor ubiquinone-2 (UQ2) was added at a final concentration of 60 μM, and the mixture was allowed to stand at 25° C. for 20 minutes. To this, potassium cyanide (final concentration: 2 mM) and mitochondria prepared from adult Ascaris suum muscle were added, and thorough mixing was done. To aliquots of the mixture, an inhibitor to be tested was added at various concentrations, and the mixtures were allowed to stand at 25° C. for 3 minutes. The enzymatic reaction was initiated by addition of potassium succinate (final concentration: 10 mM). The enzymatic activity was calculated based on the measurement of change in the absorbance at 278 nm of UQ2 (e=1.5×10^4 M^−1 cm^−1), and IC50 was determined from the plot of the inhibition percentage against the inhibitor concentration."}
{"smiles": "C[C@@H](Cn1nc(Cl)c(Cl)c1C(F)(F)F)NC(=O)c1ccccc1I", "values": [{"measurement": "IC50", "result": 2.5, "unit": "nM"}]}
